Compound potency records, mixed from different reports. Data source: NIAID ChemDB in PubChem.

All rows: growth or infection tests; species: Mycobacterium tuberculosis

An empty or dashed field is not shown. MIC bound comes from a single tested concentration. Inhibition is in % at the dose shown (toxicity tests: loss of growth or viability). Conditions beyond the fields shown may differ between rows.

{"smiles": "COc1ccccc1CCNCCN[C@H]1C[C@H]2CC[C@]1(C)C2(C)C", "read-out": "MIC", "result": "50 µM"}
{"smiles": "CN1c2ccccc2S(=O)(=O)n2c(CCc3ccccc3)nnc21", "read-out": "inhibition", "strain or isolate": "H37Rv", "dose": "6.25 µg/mL", "result": "-12%"}
{"smiles": "C1CCCC(NCCNC2CCCCCCC2)CCC1", "read-out": "MIC", "result": "12.5 µM"}
{"smiles": "Cc1cc(=O)oc2ccc(O)cc12", "read-out": "MIC", "strain or isolate": "H37Rv", "result": ">100 µg/mL"}
{"smiles": "COc1ccc(N=Nc2ccc3oc(=O)c(C(=O)Nc4ccccc4)cc3c2)cc1", "read-out": "MIC bound", "strain or isolate": "H37Rv", "read by": "resazurin", "result": ">6.25 µg/mL"}
{"smiles": "NNC(=O)c1csc(CCCOc2ccccc2)c1NC(=O)c1ccccc1", "read-out": "MIC", "strain or isolate": "H37Rv", "result": ">100 µg/mL"}
{"smiles": "COc1ccccc1CCNCCNCc1ccccc1Sc1ccccc1CO", "read-out": "MIC", "result": "50 µM"}
{"smiles": "CCC(N)(CO)CO", "read-out": "MIC", "strain or isolate": "H37Rv", "result": ">100 µg/mL"}
{"smiles": "O=C(CSC1CCc2ccccc21)N/N=C/c1ccccc1O", "read-out": "MIC bound", "strain or isolate": "H37Rv", "read by": "BACTEC", "result": ">12.5 µg/mL"}
{"smiles": "COc1cc(Br)cc(Br)c1OC", "read-out": "MIC", "strain or isolate": "H37Rv", "result": ">100 µg/mL"}
{"smiles": "CC(C)(C)n1nc(C2CC2)c(Br)c1NC(=O)c1ccc(Cl)cc1", "read-out": "inhibition", "strain or isolate": "H37Rv", "dose": "12.5 µg/mL", "read by": "BACTEC", "result": "86.99%"}
{"smiles": "Fc1cccc(CNCCNCCCCc2ccccc2)c1", "read-out": "MIC", "result": "25 µM"}
{"smiles": "C[n+]1ccc2ccc(O)cc2c1.[I-]", "read-out": "MIC", "strain or isolate": "H37Rv", "result": ">100 µg/mL"}
{"smiles": "COc1ccc(CCNCCNCCC(c2ccccc2)c2ccccc2)cc1", "read-out": "MIC", "result": "50 µM"}
{"smiles": "COc1ccc2c(c1)[n+]([O-])c(C(N)=O)c(N)[n+]2[O-]", "read-out": "MIC", "strain or isolate": "INH-r", "result": "6.3 µg/mL"}
{"smiles": "CCCCCCCCCCCNCCNC1CCCCCCC1", "read-out": "MIC", "result": "12.5 µM"}
{"smiles": "OC[C@H](Cc1ccc(Cl)cc1)NCCNCCc1ccc(Cl)cc1Cl", "read-out": "MIC", "result": "25 µM"}
{"smiles": "C[N+]1(C)CCCC1C(=O)[O-]", "read-out": "MIC bound", "strain or isolate": "H37Rv", "read by": "BACTEC", "result": ">12.5 µg/mL"}
{"smiles": "CC1(C)[C@H]2CC[C@@H](CNCCNC(c3ccccc3)c3ccccc3)[C@@H]1C2", "read-out": "MIC", "result": "25 µM"}
{"smiles": "CCOC(=O)c1c(O)cc2ccccc2c1O", "read-out": "MIC", "strain or isolate": "H37Rv", "result": ">100 µg/mL"}
{"smiles": "CC(CNCCc1ccccc1F)NCCC1=CCCCC1", "read-out": "MIC", "result": "50 µM"}
{"smiles": "COc1ccc(-c2coc3c4c(ccc3c2=O)OC(C)(C)C=C4)cc1", "read-out": "inhibition", "strain or isolate": "H37Rv", "dose": "12.5 µg/mL", "read by": "BACTEC", "result": "-19%"}
{"smiles": "Oc1ccc(N=Cc2ccccc2)cc1", "read-out": "MIC", "strain or isolate": "H37Rv", "result": ">100 µg/mL"}
{"smiles": "O=C1CC(C2OCOC3COCOC32)CC(=O)N1", "read-out": "inhibition", "strain or isolate": "H37Rv", "dose": "12.5 µg/mL", "read by": "BACTEC", "result": "25%"}
{"smiles": "NS(=O)(=O)c1ccc(NC(=O)CC(=O)c2ccccc2)cc1", "read-out": "MIC", "strain or isolate": "H37Rv", "result": ">100 µg/mL"}
{"smiles": "CC(C)=CCC/C(C)=C/CNCCNC[C@]1(C)CCC[C@]2(C)c3ccc(C(C)C)cc3CC[C@@H]12", "read-out": "MIC", "result": "12.5 µM"}
{"smiles": "Cc1ccc(NC(=O)CCCl)cc1Cl", "read-out": "MIC bound", "strain or isolate": "H37Rv", "read by": "BACTEC", "result": ">12.5 µg/mL"}
{"smiles": "COc1ccc(CNCCN[C@@H](C)C2CCCCC2)cc1OC", "read-out": "MIC", "result": "50 µM"}
{"smiles": "O=C(O)CCC(NC(=O)c1ccc([N+](=O)[O-])cc1O)C(=O)O", "read-out": "MIC", "strain or isolate": "H37Rv", "result": ">100 µg/mL"}
{"smiles": "C1=C(CCNCCNCCCc2ccccc2)CCCC1", "read-out": "MIC", "result": "12.5 µM"}
{"smiles": "COc1ccccc1CCNCCNCCNc1ccccc1", "read-out": "MIC", "result": "50 µM"}
{"smiles": "COc1nc(N)c(NC2OC[C@@H](O)[C@@H](O)[C@@H]2O)c(=O)n1C", "read-out": "inhibition", "strain or isolate": "H37Rv", "dose": "6.25 µg/mL", "read by": "resazurin", "result": "7%"}
{"smiles": "Cn1c(=N)sc2ccccc21", "read-out": "MIC", "strain or isolate": "H37Rv", "result": ">100 µg/mL"}
{"smiles": "O=C1CN(N2CCOCC2)CC(=O)N2CCCCN12", "read-out": "inhibition", "strain or isolate": "H37Rv", "dose": "12.5 µg/mL", "read by": "BACTEC", "result": "22%"}
{"smiles": "O=P(O)(O)c1ccccc1", "read-out": "MIC", "strain or isolate": "H37Rv", "result": ">100 µg/mL"}
{"smiles": "CCCCCCCCC(=O)N(C)C1C2CN3CCC(O2)C13", "read-out": "inhibition", "strain or isolate": "H37Rv", "dose": "12.5 µg/mL", "read by": "BACTEC", "result": "23%"}
{"smiles": "CCSC(=N)c1ccc(O)c(O)c1.O=S(=O)(O)O", "read-out": "MIC", "strain or isolate": "H37Rv", "result": ">100 µg/mL"}
{"smiles": "NNC(=O)c1cccnc1", "read-out": "inhibition", "strain or isolate": "H37Rv", "dose": "12.5 µg/mL", "read by": "BACTEC", "result": "0%"}
{"smiles": "CCOC([O-])=C([N+](=O)[O-])[N+](=O)[O-].[K+]", "read-out": "MIC", "strain or isolate": "H37Rv", "result": "100 µg/mL"}

The last 5 rows once more:

smiles | read-out | strain or isolate | dose | read by | result
O=P(O)(O)c1ccccc1 | MIC | H37Rv |  |  | >100 µg/mL
CCCCCCCCC(=O)N(C)C1C2CN3CCC(O2)C13 | inhibition | H37Rv | 12.5 µg/mL | BACTEC | 23%
CCSC(=N)c1ccc(O)c(O)c1.O=S(=O)(O)O | MIC | H37Rv |  |  | >100 µg/mL
NNC(=O)c1cccnc1 | inhibition | H37Rv | 12.5 µg/mL | BACTEC | 0%
CCOC([O-])=C([N+](=O)[O-])[N+](=O)[O-].[K+] | MIC | H37Rv |  |  | 100 µg/mL